Measured data: PubChem BioAssay AID504761 (Drosophila RNAi Screening Center, 2011)
In all, the deposit lists about 22,000 reagents; below is an unselected part of those that have a named target and a result. In the full data, 116 (0.52%) are marked active. 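Calls depend on retest data that are not deposited; infection was ranked per plate without normalising between plates; the unit of the infection score is not given.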 Raw values vary from plate to plate and are shown uncorrected. A plus sign joins genes that one reagent is predicted to hit. Not given: the amount of reagent, the time to read-out.

Screen: 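Genome-wide fly cell screen for genes dengue virus requires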 (primary screen)
System: D.Mel-2 cells from Drosophila
Reagent: long dsRNA against Drosophila genes
Challenge: infection with dengue virus type 2; dose and infection time not stated
Read-out: 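Per well on two replicate plates, imaging gave the percent of cells positive for viral envelope protein, ranked by infection, and a nuclear count of cells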
Direction: infection score: higher = more virus-infected cells; cell count: higher = more cells in the well
Active means: 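Low infection ranks in the two replicates (chance level up to 0.065) followed by a retest with a 1.5-fold or larger significant decrease, p below 0.05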
Meaning of the calls: active = confirmed: knock-down lowers infection; inactive = not picked or not confirmed

| gene | dsRNA | infection score, replicate 1 | infection score, replicate 2 | cell count, replicate 1 | cell count, replicate 2 | Outcome |
| --- | --- | --- | --- | --- | --- | --- |
| mrva (minerva) | DRSC11009 | 5.84 | 5.6 | 6766 | 6780 | inactive |
| mrva (minerva) | DRSC21842 | 11.6 | 1.77 | 4854 | 6425 | inactive |
| mrva (minerva) | DRSC25508 | 6.72 | 2.52 | 5428 | 5440 | inactive |
| Caf1-105 (Chromatin assembly factor 1, p105 subunit) | DRSC06209 | 10.3 | 1.96 | 5822 | 6536 | inactive |
| Nacalpha (Nascent polypeptide associated complex protein alpha subunit) | DRSC07477 | 26.8 | 17.7 | 3835 | 4176 | inactive |
| Nacalpha (Nascent polypeptide associated complex protein alpha subunit) | DRSC25351 | 3.03 | 7.88 | 4165 | 4567 | inactive |
| Fum1 (Fumarase 1) | DRSC18344 | 12 | 6.76 | 5898 | 3372 | active |
| Fum1 (Fumarase 1) | DRSC27406 | 7.23 | 14.8 | 6513 | 5700 | inactive |
| CG9312 | DRSC16471 | 11.8 | 15.4 | 2001 | 2957 | inactive |
| Takl2 (Tak1-like 2) | DRSC15650 | 0.92 | 7.15 | 6108 | 1832 | inactive |
| Pfdn4 (Prefoldin 4) | DRSC09761 | 4.57 | 6.34 | 6237 | 6056 | inactive |
| Pfdn4 (Prefoldin 4) | DRSC26736 | 5.74 | 12 | 6537 | 5389 | inactive |
| Dpy-30L2 (Dpy-30-like 2) | DRSC08205 | 3.43 | 10.5 | 5809 | 5180 | inactive |
| Dpy-30L2 (Dpy-30-like 2) | DRSC25695 | 2.59 | 3.77 | 6286 | 6106 | inactive |
| CG34331 | DRSC20679 | 2.44 | 2.01 | 5776 | 5471 | inactive |
| Edg78E (Ecdysone-dependent gene 78E) | DRSC11863 | 7.06 | 5.78 | 6498 | 6245 | inactive |
| Edg78E (Ecdysone-dependent gene 78E) | DRSC26712 | 16.8 | 10.1 | 5039 | 6390 | inactive |
| PPO2 (Prophenoloxidase 2) | DRSC07102 | 3.52 | 1.27 | 6627 | 6922 | inactive |
| CG15345 (retired record) | DRSC18030 | 0.62 | 2.86 | 6083 | 6816 | inactive |
| CG15345 (retired record) | DRSC22712 | 12.7 | 6.69 | 6393 | 6939 | inactive |
| Pka-R1 (Protein kinase, cAMP-dependent, regulatory subunit type 1) | DRSC11674 | 11.7 | 8.75 | 5906 | 6400 | inactive |
| Pka-R1 (Protein kinase, cAMP-dependent, regulatory subunit type 1) | DRSC11875 | 4.91 | 9.95 | 6267 | 6230 | inactive |
| Pka-R1 (Protein kinase, cAMP-dependent, regulatory subunit type 1) | DRSC25205 | 8.87 | 18.1 | 6100 | 5333 | inactive |
| eas (easily shocked) | DRSC20329 | 5.63 | 3.69 | 7017 | 6674 | inactive |
| eas (easily shocked) | DRSC29435 | 24.3 | 9.32 | 4352 | 4777 | inactive |
| vers (versatile) | DRSC23232 | 0.82 | 2.79 | 6726 | 6870 | inactive |
| dan (distal antenna) | DRSC14406 | 3.11 | 4.12 | 6530 | 6016 | inactive |
| dan (distal antenna) | DRSC29653 | 16.1 | 6.12 | 5004 | 980 | inactive |
| Datp (Diadenosine tetraphosphatase) | DRSC01102 | 1.5 | 1.29 | 5918 | 5433 | inactive |
| CG14607 | DRSC12551 | 4.07 | 5.28 | 6287 | 6103 | inactive |
| csw (corkscrew) | DRSC18756 | 2.51 | 0.75 | 6129 | 6516 | inactive |
| csw (corkscrew) | DRSC23326 | 2.27 | 14.8 | 6708 | 6887 | inactive |
| Pstk + CG14210 + Tim9b | DRSC19566 | 8.02 | 8.39 | 5675 | 5420 | inactive |
| Pstk + CG14210 + Tim9b | DRSC29021 | 3.5 | – | 3744 | 337 | inactive |
| CG12375 | DRSC02163 | 8.13 | 4.53 | 6184 | 6496 | inactive |
| CG12375 | DRSC26794 | 11.7 | 13.9 | 6857 | 6437 | inactive |
| ppk8 (pickpocket 8) | DRSC17269 | 1.7 | 3.98 | 6247 | 6610 | inactive |
| mRpS25 (mitochondrial ribosomal protein S25) | DRSC19598 | 9.46 | 11.4 | 6034 | 6140 | inactive |
| CG12842 (retired record) | DRSC06188 | 18.3 | 15.3 | 3557 | 1981 | inactive |
| CG12842 (retired record) | DRSC24909 | 9.13 | 8.71 | 6723 | 6375 | inactive |
| fd3F + CG42499 (retired record) | DRSC18160 | 0.87 | 4.35 | 6555 | 6464 | inactive |
| fd3F + CG42499 (retired record) | DRSC18161 | 5.97 | 1.86 | 6617 | 6789 | inactive |
| fd3F + CG42499 (retired record) | DRSC28554 | 6.67 | 24.4 | 1169 | 6620 | inactive |
| CG14227 | DRSC19584 | 32.5 | 6.9 | 5297 | 6995 | inactive |
| CG14227 | DRSC29213 | 14.3 | – | 4367 | 253 | inactive |
| Mvb12 (Multivesicular body subunit 12) | DRSC20027 | 5.13 | 1.38 | 6390 | 6674 | inactive |
| Ir60e (Ionotropic receptor 60e) | DRSC04227 | 4.96 | 4.13 | 6728 | 6490 | inactive |
| her (hermaphrodite) | DRSC03543 | 12.7 | 8.69 | 6294 | 5710 | inactive |
| mon2 (monensin sensitivity 2) | DRSC03112 | 4.39 | 5.85 | 5700 | 6191 | inactive |
| CG31121 | DRSC15361 | – | 18.5 | 274 | 2069 | inactive |
| CG31121 | DRSC15363 | 11.9 | 10 | 5383 | 800 | inactive |
| CG3349 | DRSC10359 | 3.49 | 2.9 | 6382 | 6696 | inactive |
| Cnb (Centrobin) | DRSC08569 | 12.1 | 3.96 | 6506 | 7093 | inactive |
| His3.3A (Histone H3.3A) | DRSC03343 | 1.24 | 2.27 | 3951 | 4978 | inactive |
| His3.3A (Histone H3.3A) | DRSC25053 | 0.94 | 1.98 | 5651 | 5703 | inactive |
| rdog (red dog mine) | DRSC14431 | 1.6 | 4.01 | 6139 | 6529 | inactive |
| rdog (red dog mine) | DRSC26545 | 3.21 | 4.76 | 6763 | 6241 | inactive |
| CG5188 | DRSC02826 | 1.86 | 5.13 | 6169 | 6203 | inactive |
